Pooled drug test results. Numbers come from NIAID ChemDB, via PubChem.

Common to all: whole-cell or culture tests; organism: Measles virus; measure: EC50

Blank or dashed fields: not listed here.

| SMILES | strain | cell line | method | result |
|---|---|---|---|---|
| CSc1nsc(-c2ccncc2)c1C#N | Edmonston | HEP-2 | plaque count | >2.5 µM |
| CCCc1cc(=O)oc2c3c(c4c(c12)OC(C)(C)C=C4)O[C@H](C)[C@@H](C)[C@@H]3O | Chicago-1 | CV-1 | cytopathic effect | >100 µg/mL |
| CSc1nsc(-c2ccccc2)c1C#N | Edmonston | HEP-2 | plaque count | >20 µM |
| CCCc1cc(=O)oc2c3c(c4c(c12)OC(C)(C)[C@H](O)[C@@H]4O)O[C@H](C)[C@@H](C)[C@@H]3O | Edmonston | CV-1 | cytopathic effect | 20 µg/mL |
| CSc1nsc(SC)c1C#N | Edmonston | HEP-2 | plaque count | >12 µM |
| CS[C@@H]1C=C[C@H](n2cnc3c(N)ncnc32)C1 | - | CV-1 | cytopathic effect | >100 µg/mL |
| CCNc1nc(=O)c2ncn([C@@H]3O[C@H](CO)[C@@H](O)[C@H]3O)c2c(=O)[nH]1 | - | CV-1 | neutral red | 1.2 µM |
| Nc1ncnc2c1ncn2[C@@H]1CC[C@@H](O)[C@H]1O | SA | CV-1 | cytopathic effect | >100 µg/mL |
| CSc1nsc(-c2ccc3ccccc3c2)c1C#N | Edmonston | HEP-2 | plaque count | >20 µM |
| Nc1ncnc2c1ncn2[C@@H]1C[C@H](N)[C@@H](O)[C@H]1O | Halonen | CV-1 | neutral red | 0.2 µg/mL |
| CNc1nc(=O)c2ncn([C@@H]3O[C@H](CO)[C@@H](O)[C@H]3O)c2c(=O)[nH]1 | - | CV-1 | neutral red | >100 µM |
| Nc1ncnc2c1ncn2[C@@H]1C=C[C@@H](O)[C@H]1O | TN1994 | CV-1 | neutral red | 0.1 µg/mL |
| CCCc1cc(=O)oc2cc(OC(=O)C(C)(C)C)c3c(c12)OC(C)(C)C=C3 | Edmonston | CV-1 | cytopathic effect | 0.3 µg/mL |
| Nc1ncnc2c1ncn2[C@H]1C[C@H](O)[C@H](O)[C@@H]1O | - | CV-1 | cytopathic effect | 1 µg/mL |
| N#Cc1c(Cl)nsc1Cl | Edmonston | HEP-2 | plaque count | >4 µM |

For reference, 2 entries again:

SMILES	strain	cell line	method	result
CCCc1cc(=O)oc2c3c(c4c(c12)OC(C)(C)C=C4)O[C@H](C)[C@@H](C)[C@@H]3O	Chicago-1	CV-1	cytopathic effect	>100 µg/mL
CCNc1nc(=O)c2ncn([C@@H]3O[C@H](CO)[C@@H](O)[C@H]3O)c2c(=O)[nH]1	-	CV-1	neutral red	1.2 µM

Lines come from different laboratories, so protocols vary. ECn: concentration that inhibits the pathogen or its effect by n%.